Values from PubChem BioAssay AID1259414 (Drosophila RNAi Screening Center, 2018)

Assay: 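Host factors increasing or decreasing Wolbachia levels in cultured fly cells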 (primary screen)
Cells: Drosophila JW18 cells infected with Wolbachia
Reagents: long dsRNA against Drosophila genes, 0.25 µg dsRNA per well of a 384-well plate
Timing: 5 days
Treatment: cells persistently infected with Wolbachia before knock-down; no added drug
Detection: 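Automated imaging of bacterial rRNA staining divided by host cell count, reported as plate-normalised robust z-score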
Reading the numbers: Wolbachia per cell robust z: higher = more Wolbachia per host cell than the plate typical
Hit rule: 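Active if absolute robust z reaches 1.5 in two or more of three replicates, leaving out multi- or no-target dsRNAs, genes unexpressed in JW18 and A1 wells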
In all, the deposit lists about 24,000 reagents; this is an unselected part of those with a known target gene and a result. In the full data, about 1,210 (5%) were called active. 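Inactive calls also include excluded dsRNAs with several or no targets, genes unexpressed in JW18, and well A1, regardless of score.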 Reagents against one gene are numbered here. No sequences are given here.

CG30393 #1 | Wolbachia per cell robust z, rep 1: -1.01; Wolbachia per cell robust z, rep 2: 0.07; Wolbachia per cell robust z, rep 3: -0.487; outcome: inactive
CG30393 #2 | Wolbachia per cell robust z, rep 1: 0.356; Wolbachia per cell robust z, rep 2: 0.875; Wolbachia per cell robust z, rep 3: 1.03; outcome: inactive
CG7457 #1 | Wolbachia per cell robust z, rep 1: -0.927; Wolbachia per cell robust z, rep 2: 0.253; Wolbachia per cell robust z, rep 3: 0.348; outcome: inactive
CG7457 #2 | Wolbachia per cell robust z, rep 1: -3.32; Wolbachia per cell robust z, rep 2: -5.78; Wolbachia per cell robust z, rep 3: -3.45; outcome: inactive
Idgf2 (Imaginal disc growth factor 2) #1 | Wolbachia per cell robust z, rep 1: 0.131; Wolbachia per cell robust z, rep 2: -0.0133; Wolbachia per cell robust z, rep 3: -0.112; outcome: inactive
Idgf2 (Imaginal disc growth factor 2) #2 | Wolbachia per cell robust z, rep 1: -5.73; Wolbachia per cell robust z, rep 2: -1.36; Wolbachia per cell robust z, rep 3: -1.62; outcome: active
Idgf2 (Imaginal disc growth factor 2) #3 | Wolbachia per cell robust z, rep 1: 0.604; Wolbachia per cell robust z, rep 2: 0.494; Wolbachia per cell robust z, rep 3: -0.49; outcome: inactive
Mgat2 #1 | Wolbachia per cell robust z, rep 1: 0.313; Wolbachia per cell robust z, rep 2: -1.07; Wolbachia per cell robust z, rep 3: -0.334; outcome: inactive
Mgat2 #2 | Wolbachia per cell robust z, rep 1: -1.82; Wolbachia per cell robust z, rep 2: -0.438; Wolbachia per cell robust z, rep 3: -0.771; outcome: inactive
Vajk4 #1 | Wolbachia per cell robust z, rep 1: -1.97; Wolbachia per cell robust z, rep 2: -0.864; Wolbachia per cell robust z, rep 3: 0.0148; outcome: inactive
Vajk4 #2 | Wolbachia per cell robust z, rep 1: -0.202; Wolbachia per cell robust z, rep 2: 0.273; Wolbachia per cell robust z, rep 3: -1.59; outcome: inactive
Vajk4 #3 | Wolbachia per cell robust z, rep 1: 0.401; Wolbachia per cell robust z, rep 2: -0.544; Wolbachia per cell robust z, rep 3: 0.53; outcome: inactive
